Consider one substance from patent US20240181044A1.

In the experiment the target is RBD (SARS-COV-2) (UniProt P0DTC2). As to the kind of experiment: SPR.

What is called Kd is the concentration at which binding is half-saturated.

In the case of C121, the Kd worked out at 3.9 nM.
